Measured values from several laboratories, pooled; numbers as filed in NIAID ChemDB.

Shared fields: target-level tests; organism: Varicella zoster virus

Rows are shuffled and stem from different studies.

| compound | strain | target | measure | value |
|---|---|---|---|---|
| COc1ncnc2c1ncn2[C@@H]1O[C@H](CO)[C@@H](O)[C@@H]1O | OKA | Thymidine kinase | Ki | 200 µM |
| Nn1cc(C(=O)NCc2ccc(Cl)cc2)c(=O)c2cc(C#CCO)ccc21 | - | DNA polymerase | IC50 | 0.22 µM |
| Nc1ccn(C[C@@H](CO)OCP(=O)(O)O)c(=O)n1 | Kanno-Kohmura (TK-) | Thymidylate synthetase | IC50 | >100 µM |
| Cn1cc(C(=O)NCc2ccc(Cl)cc2)c(=O)c2cc(CN3CCOCC3)ccc21 | TYPE 2 | DNA polymerase | IC50 | 0.37 µM |
| O=C(NCc1ccc(Cl)cc1)c1cn(N2CCCCC2)c2ccc(CN3CCOCC3)cc2c1=O | - | DNA polymerase | IC50 | 0.3 µM |
| Nc1ncnc2c1ncn2C[C@@H](CO)OCP(=O)(O)O | Kanno-Kohmura (TK-) | Thymidylate synthetase | IC50 | >100 µM |
| C[C@@H](O)Cn1cnc2c(=O)[nH]cnc21 | - | Thymidine kinase | Ki | 2600 µM |
| O=C(NCc1ccc(Cl)cc1)c1cn(N2CCOCC2)c2ccc(CN3CCOCC3)cc2c1=O | - | DNA polymerase | IC50 | 0.2 µM |
| O=c1[nH]c(=O)n([C@H]2CO[C@@H](CO)O2)cc1/C=C/Br | - | Thymidine kinase | Ki | 78 µM |
| Nc1nc2c(ncn2CC(CCO)COP(=O)(O)OP(=O)(O)OP(=O)(O)O)c(=O)[nH]1 | - | DNA polymerase | IC50 | 0.1 µM |
| C[C@@H](O)Cn1cnc2c(N)ncnc21 | - | Thymidine kinase | Ki | 3800 µM |
| O=C(NCc1ccc(Cl)cc1)c1cn(N2CCOCC2)c2ccc(CC3CCOCC3)cc2c1=O | - | DNA polymerase | IC50 | 0.1 µM |
| O=c1[nH]c(=O)n([C@H]2C[C@H](O)[C@@H](CO)O2)cc1/C=C/Br | Kanno-Kohmura (TK-) | Thymidylate synthetase | IC50 | 14 µM |
| CC(C)Oc1ncnc2c1ncn2[C@@H]1O[C@H](CO)[C@@H](O)[C@@H]1O | OKA | Thymidine kinase | Ki | >3000 µM |
| Cc1cn([C@H]2CC[C@@H](CO)O2)c(=O)[nH]c1=O | KANNO (TK+) | Thymidylate synthetase | IC50 | >100 µM |
| C[C@@H](O)Cn1cnc2c(CS)ncnc21 | - | Thymidine kinase | Ki | 1100 µM |
| Nc1ncnc2c1ncn2[C@H]1CC[C@@H](CO)O1 | KANNO (TK+) | Thymidylate synthetase | IC50 | >100 µM |
| O=C(NCc1ccc(Cl)cc1)c1cn(N2CCCC2)c2ccc(CN3CCOCC3)cc2c1=O | - | DNA polymerase | IC50 | 0.88 µM |

ICn: concentration for n% inhibition. An empty or dashed field is not shown.